For assay [1], the target named is T1, HPV16 E6 C-terminal PDZ ligand (PL) peptide, biotinylated (human papillomavirus type 16). Nature of the assay: Matrix/G assay ELISA; E6 peptide titrated on GST-PDZ.
In assay [2] the target is T1, HPV16 E6 C-terminal PDZ ligand (PL) …. Kind of assay: G assay ELISA; E6 PL peptide titrated on constant GST-PDZ. In general terms: ELISA stands for enzyme-linked immunosorbent assay.
The target of assay [3] is HPV E6 #16 PDZ ligand peptide (C-terminal peptide of the E6 protein of HPV 16) (HPV 16). Kind of assay: G assay ELISA, immobilised GST-PDZ, biotin peptide 10 uM.
For assay [4] the target is unchanged. The assay is described as above. The source holds these as a separate data set.

“And” between values parts separate entries of the source, which are not always exact repeats. Identical values can stand only once. Like-named read-outs stand apart in the source and are kept apart here.

B1: GST-VARTUL PDZ domain, Q14160 727-822 (protein)
chain: MSPILGYWKIKGLVQPTRLLLEYLEEKYEEHLYERDEGDKWRNKKFELGLEFPNLPYYIDGDVKLTQSMAIIRYIADKHNMLGGCPKERAEISMLEGAVLDIRYGVSRIAYSKDFETLKVDFLSKLPEMLKMFEDRLCHKTYLNGDHVTHPDFMLYDALDVVLYMDPMCLDAFPKLVCFKKRIEAIPQIDKYLKSSKYIAWPLQGWQATFGGGDHPPKSDLIEGRLTLTILRQTGGLGISIAGGKGSTPYKGDDEGIFISRVSEEGPAARAGVRVGDKLLEVNGVALQGAEHHEAVEALRGAGTAVQMRVWRERMVEPENA
As usually defined, the EC50 is the concentration that produces a half-maximal response. Consider B1, for which the EC50 in assay [1] and in assay [2] was 0.94 µM each time.

B2: GST-novel PDZ gene PDZ domain 1 (protein)
chain: MSPILGYWKIKGLVQPTRLLLEYLEEKYEEHLYERDEGDKWRNKKFELGLEFPNLPYYIDGDVKLTQSMAIIRYIADKHNMLGGCPKERAEISMLEGAVLDIRYGVSRIAYSKDFETLKVDFLSKLPEMLKMFEDRLCHKTYLNGDHVTHPDFMLYDALDVVLYMDPMCLDAFPKLVCFKKRIEAIPQIDKYLKSSKYIAWPLQGWQATFGGGDHPPKSDLIEGRQANSDESDIIHSVRVEKSPAGRLGFSVRGGSEHGLGIFVSKVEEGSSAERAGLCVGDKITEVNGLSLESTTMGSAVKVLTSSSRLHMMVRRMGRVPGIKFSKEKNSS
Take B2: in assay [3], the Ave OD worked out at 0.545 A450 nm and the OD S/N (ratio to GST-only well) worked out at 1.89.

B3: GST-PSD95 PDZ domain 2 (protein)
chain: MSPILGYWKIKGLVQPTRLLLEYLEEKYEEHLYERDEGDKWRNKKFELGLEFPNLPYYIDGDVKLTQSMAIIRYIADKHNMLGGCPKERAEISMLEGAVLDIRYGVSRIAYSKDFETLKVDFLSKLPEMLKMFEDRLCHKTYLNGDHVTHPDFMLYDALDVVLYMDPMCLDAFPKLVCFKKRIEAIPQIDKYLKSSKYIAWPLQGWQATFGGGDHPPKSDLIEGRHVMRRKPPAEKVMEIKLIKGPKGLGFSIAGGVGNQHIPGDNSIYVTKIIEGGAAHKDGRLQIGDKILAVNSVGLEDVMHEDAVAALKNTYDVVYLKVAKPSNAYL
B3: the Ave OD in assay [4] is 2.7 A450 nm and 1.31 A450 nm. Moreover, the OD S/N (ratio to GST-only well) in assay [4] is 12.2 and 12.5. Further, the EC50 in assay [1] and in assay [2] was 6.8 µM throughout.

Source of the values: patent US20070099199A1.
